One substance from publication PMC10362037 can be followed below.

The test addresses SARS-CoV-2 Omicron (B.1.1.529) Spike S1 (Sino Biological, 40591-V08H41) (SARS-CoV-2). The experiment in a line: SPR.

For “human ACE2 (Abclonal, RP01266) (from UniProt Q9BYF1 18-740) (receptor)”, the Kd – broadly, a measure of binding affinity in units of concentration – was determined as 96.2 nM.
